In patent US10150742B2, “Substituted heterocyclic compounds for treating or preventing viral infections” (President and Fellows of Harvard College, priority 2013, dated 2018):

Test system: 7-148-6-resistant DENV2 quasispecies
Conditions: compared to DMSO-passaged control strain

With `NC(=O)c1cccc(-c2cc(Nc3ccc(OC(F)(F)F)cc3)ncn2)c1` [GNF-2] the “sensitivity of 7-148-6-resistant DENV2 to compound” value was “still be sensitive”.
